A mixed list of measured activities; the numbers were collected in NIAID ChemDB.

All rows: growth or infection tests; species: HIV-1; read-out: EC50

ECn is the concentration giving n% inhibition of infection, replication or growth. Lines come from different laboratories, so protocols vary. An empty or dashed field is not shown.

SMILES	strain or isolate	changes	method	cell line	result
Nc1ccn([C@H]2CC[C@@H](CO)O2)c(=O)n1	BCF07	RT-A98G V106I Y181C	-	PBMC	0.06 µM
C/C=C/CSc1cc(NC(=S)c2ccsc2C)ccc1Cl	Pyridinone-resistant (RT Y181C K103N)	RT-K103N Y181C	cytopathic effect / XTT	CEM + CEM-SS	>2 µM
Nc1nc(=O)n([C@@H]2CS[C@H](CO)O2)cc1F	NL4-3	A114S/A502V	GFP	TZM-gfp	0.39 µM
Nc1nc(=O)n([C@@H]2CS[C@H](CO)O2)cc1F	Clinical isolate	K103N/Y188L	recombinant virus assay	MT-2	0.1806 µM
CC(C)CN(C[C@@H](O)[C@H](Cc1ccccc1)NC(=O)O[C@H]1CCOC1)S(=O)(=O)c1ccc(N)cc1	NL4-3	L10F M46I I54V V82A	p24 / luminescence	MT-4	>1 µM
Cc1cc(S(N)(=O)=O)ccc1NC(=O)COc1ccc(Cl)cc1C(=O)c1cc(Cl)cc(C#N)c1	AZT-resistant (RT D67N K70R T215Y) RTMCY	RT-D67N K70R T215Y	β-galactosidase	MAGI	0.0005 µM
CC(=O)O[C@@]12C[C@@H](C)[C@@]3(O)[C@@H](C=C(CO)C[C@]4(O)C(=O)C(C)=C[C@@H]34)[C@@H]1C2(C)C	NL4-3	gp41 (36G) fusion inhibitor resistant (V38A N42T)	p24 / ELISA	C8166	>10 µM
COC(=O)N[C@H](C(=O)N[C@@H](Cc1ccccc1)[C@@H](O)CN(Cc1ccc(-c2ccccn2)cc1)NC(=O)[C@@H](NC(=O)OC)C(C)(C)C)C(C)(C)C	IIIB	D437N	p24 / ELISA	MT-2	0.0009 µM
CCN[C@H]1CO[C@@H]2OCC[C@H](OC(=O)N[C@@H](Cc3cccc(OC)c3)[C@H](O)CN(CC(C)C)S(=O)(=O)c3ccc4nc(NC(C)C)sc4c3)[C@@H]21	NL4-3	L10I I15V K20R L24I V32I M36I M46I L63P K70Q V82A I84V L89M	p24 / luminescence	MT-4	0.016 µM
COc1ccc(S(=O)(=O)N(CC(C)C)C[C@@H](O)[C@H](Cc2ccc(OC)c(Cl)c2)NC(=O)O[C@H]2CO[C@H]3OCC[C@H]32)cc1	NL4-3	L10F M46I I54V V82A	p24 / luminescence	MT-4	0.0023 µM
O=C1CN=C(c2ccc[nH]2)c2cc(Cl)ccc2N1	IIIB/LAI	-	antigen	HuT-78 + HUT 78	0.9 µM
CC(C)CN(C[C@@H](O)[C@H](Cc1ccccc1)NC(=O)O[C@H]1CCOC1)S(=O)(=O)c1ccc(N)cc1	97ZA003	-	p24 / luminescence	PBMC	0.032 µM
CC(C)CN(C[C@@H](O)[C@H](Cc1ccccc1)NC(=O)O[C@H]1CCOC1)S(=O)(=O)c1ccc(N)cc1	IIIB	K112M K113E V128I M200I H219P I401T R409K D437N L441P	p24 / ELISA	MT-2	0.0473 µM
COC(=O)N[C@H](C(=O)N[C@@H](Cc1ccccc1)[C@@H](O)CN(Cc1ccc(-c2ccccn2)cc1)NC(=O)[C@@H](NC(=O)OC)C(C)(C)C)C(C)(C)C	NL4-3	-	p24 / luminescence	MT-4	0.002 µM
C#C[C@]1(CO)O[C@@H](n2cnc3c(N)nc(F)nc32)C[C@@H]1O	Clinical isolate	A114S	single cycle / fluorescence	PBMC	0.00044 µM
CC(=O)N1CCC(C(=O)N(CCCN2CCC(Cc3ccc(C(N)=O)cc3)CC2)c2ccc(C)c(Cl)c2)CC1	R5 subtype D_1 recombinant	-	luciferase	U87 (CD4+ CCR5+) + U87	0.0011 µM
O=c1[nH]cnc2c1ncn2[C@H]1CC[C@@H](CO)O1	HXB2	RT-M184V	β-galactosidase	MAGI (CCR5) + MAGI	3.7 µM
CN[C@H]1CO[C@@H]2OCC[C@H](OC(=O)N[C@@H](Cc3cccc(OC)c3)[C@H](O)CN(CC(C)C)S(=O)(=O)c3ccc4nc(NC(C)C)sc4c3)[C@@H]21	NL4-3	L10F K20T D30N K45I A71V V77I	p24 / luminescence	MT-4	0.043 µM
O=C1N(Cc2ccc(CO)cc2)[C@H](Cc2ccccc2)[C@H](O)[C@@H](O)[C@@H](Cc2ccccc2)N1Cc1ccc(CO)cc1	Clinical isolate E	-	plaque count / virus yield	MT-2	<0.07 µg/mL
Cc1cn([C@H]2C=C[C@@H](CO)O2)c(=O)[nH]c1=O	HXB2	RT-M184V	β-galactosidase	MAGI (CCR5) + MAGI	5.6 µM
CC(C)(C)NC(=O)[C@@H]1C[C@@H]2CCCC[C@@H]2CN1C[C@@H](O)[C@H](Cc1ccccc1)NC(=O)[C@H](CC(N)=O)NC(=O)c1ccc2ccccc2n1	RUD (PR L10I/K20C/M36I/L63T/I64V/A71M)	PR-L10I K20C M36I L63T I64V A71M	-	PBMC	0.013 µM
CC(C)CN(C[C@@H](O)[C@H](Cc1ccccc1)NC(=O)O[C@H]1CCO[C@H]2OCC[C@H]21)S(=O)(=O)c1ccc2nc(NC3CC3)sc2c1	NL4-3	L10I I54V K20R L24I V32I L33F M36I M46I I54M L63P K70Q V82I I84V L89M	p24 / luminescence	MT-4	>1 µM
Cc1[nH]c(=O)c(F)cc1Cn1cnc(C(F)(F)C(F)F)c(Oc2cc(C(F)F)cc(C#N)c2C)c1=O	-	K103N	RT activity / fluorescence	-	1.899 µM
CC(C)CCC[C@@H](C)[C@H]1CC[C@H]2[C@@H]3CC[C@H]4C[C@@H](CCC=C(c5cc(Cl)c(O)c(C(=O)O)c5)c5cc(Cl)c(O)c(C(=O)O)c5)CC[C@]4(C)[C@H]3CC[C@]12C	RF	-	p24 / RT activity	CEM + CEM-SS	5.1 µM
O=c1[nH]cnc2c1ncn2[C@H]1CC[C@@H](CO)O1	BCF08	RT-A98G Y181C	-	PBMC	0.2 µM
CCN(c1nc(F)ccc1NC(C)(C)C)C1CCN(C(=O)c2cc3cc(NC(=O)N4CCN(C)CC4)ccc3[nH]2)CC1	IIIB	D437N	p24 / ELISA	MT-2	0.0261 µM
O=c1[nH]cnc2c1ncn2[C@H]1CC[C@@H](CO)O1	720	-	ELISA	PBMC	0.6 µM
CN[C@H]1CO[C@@H]2OCC[C@H](OC(=O)N[C@@H](Cc3ccccc3)[C@H](O)CN(CC(C)C)S(=O)(=O)c3ccc4nc(NC5CC5)sc4c3)[C@@H]21	NL4-3	L10I L33I M36I M46I I54V K55R I62V L63P A71V G73S V82T L90M I93L	p24 / luminescence	MT-4	0.038 µM
Cc1occc1C(=S)Nc1ccc(Cl)c(/C=N/OC(C)(C)C)c1	Isolate NL4-3	-	cytopathic effect / XTT	CEM + CEM-SS	0.08 µM
CC(C)=CCN1Cc2cc(Cl)cc3[nH]c(=S)n(c23)C[C@@H]1C	HXB2	RT-L74V Y181C	plaque count	HT4 + HT4 LacZ-1	4 µM
CC(C)CN(C[C@@H](O)[C@H](Cc1cc(F)cc(F)c1)NC(=O)O[C@H]1CCO[C@H]2OCC[C@H]21)S(=O)(=O)c1ccc2nc(NC(C)C)sc2c1	92UG037	-	p24 / luminescence	PBMC	0.00033 µM
CO[P@](=O)(c1cc(C)cc(/C=C/C#N)c1)c1c(C(N)=O)[nH]c2ccc(Cl)cc12	NL4-3	WT	ELISA	MT-4	0.0017 µM
Cc1cn([C@H]2C=C[C@@H](CO)O2)c(=O)[nH]c1=O	Clinical isolate	M41L/M184V/L210W/T215Y	recombinant virus assay	MT-2	0.576 µM
Cc1ccnc2c1NC(=O)c1cccnc1N2C1CC1	NL4-3 (RT Y181C)	RT-Y181C	cytopathic effect / XTT	CEM + CEM-SS	1.3 µM